Measurements: US20040219545

Test system: Tat47-58 peptide (HIV-1)
Experiment: EMSA
Conditions: peptide 0.1-1.6 uM, purified recombinant protein

## GGCGUCACACCUUCGGGUGAAGUCGCC [HIV-1 TAR element RNA oligonucleotide]
TK buffer: 50 mM Tris-HCl pH 7.4, 20 mM KCl, 0.1% Triton X-100, 0.5 mM MgCl2, 12% native gel at 4 C, label: 5' fluorescein and 3' 32P-cytidine bisphosphate
  binding result: binds

## GGCGUCACACCUUCGGGUGAAGUCGCC
Gel retardation by automated capillary electrophoresis, TK buffer with 0.5 mM MgCl2, printed TAR sequence identical to the 16S A site oligo, label: 5' fluorescein
  binding result: binds
